Test results taken from patent publication US20100221758A1, “Sensors for Measuring Contaminants” (ECI Biotech Inc., priority 2007, published 2010).

How the values were obtained:
Mycoplasma cells = experiment: Detergent lysis buffer procedure for trxB assay; type: cell-based; conditions: 0.25% Triton X-100, 0.4% BriJ 35, digitonin
Procedure: A detergent lysis buffer procedure that would hydrolyze the simple Mycoplasma cell membranes but not lyse the tissue culture cells was needed. Methyl-6-O—(N-heptylcarbamoyl)-α-D-glucopyranoside (HECAMEG) is a preferred detergent. […] As expected, 0.1 mM NADPH enhanced the activity of trxB (FIG. 12). As a substrate for trxB, Bodipy® FL L-cystine provided a signal that was 7500 times that of the buffer control, however this signal was an artifact of the digitonin.

M. hyorhinis = experiment: Vmax measured using MCA labeled substrates with gentle HECAMEG lysis; type: biochemical, Mycoplasma hyorhinis; conditions: Vmax infected medium / Vmax uninfected medium
Procedure: A presently preferred substrate is leu-MCA that had significant activity above the uninfected media control under the gentle conditions used to lyse the Mycoplasma (0.05% HECAMEG, 1 mM MgCl2, 100 mM NaCl, 40 mM Tris buffer, pH 8.5). The MCA-Leu substrate produces a signal level of 500 mOD in 30 minutes with M. hyorhinis, while M. hyorhinis has weak activity for arg-MCA.

Molecule | effect of detergent on trxB assay (Mycoplasma cells) | Signal/Noise (M. hyorhinis)
C[C@@H]1CC[C@@]2(OC1)O[C@H]1[C@@H](O)[C@H]3[C@@H]4CC[C@H]5C[C@@H](O[C@@H]6O[C@H](CO)[C@H](O[C@@H]7O[C@H](CO)[C@@H](O)[C@H](O[C@@H]8OC[C@@H](O)[C@H](O)[C@H]8O)[C@H]7O[C@@H]7O[C@H](CO)[C@H](O)[C@H](O[C@@H]8O[C@H](CO)[C@@H](O)[C@H](O)[C@H]8O)[C@H]7O)[C@H](O)[C@H]6O)[C@H](O)C[C@]5(C)[C@H]4CC[C@]3(C)[C@H]1[C@@H]2C [digitonin] | either significant increase in the background or loss in the true level of trxB activity | 
Triton X-100 | either significant increase in the background or loss in the true level of trxB activity | 
arginine-(7-methoxycoumarin-4-yl)acetyl [arg-MCA] |  | 2.10
leucine-(7-methoxycoumarin-4-yl)acetyl [leu-MCA] |  | 23.83
methionine-(7-methoxycoumarin-4-yl)acetyl [met-MCA] |  | 15.90
